This note sets out measurements from patent EP2924021A1, “ANTI-HIV COMPOUND AND PREPARATION METHOD AND USE THEREOF” (priority 2012, dated 2014).

One series concerns HIV-1IIIB(H9 cells). In words: Anti-HIV activity in H9 cells. The class given is cell-based. The following applies: TI(CC50/EC50).
The next series has as its system HIV-1IIIB (C8166 cells). In words: Anti-HIV activity in C8166 cells. The class given is cell-based. The following applies: TI(CC50/EC50).

Where only a bound is given, the exact number is not on record here.

Regarding `COc1ccccc1NC(=O)c1c(NCCO)cccc1Sc1ccc([N+](=O)[O-])cc1` [compound 80, 2-((2-hydroxyethyl)amino)-N-(2-methoxyphenyl)-6-((4-nitrophenyl)thio) benzamide], the TI with HIV-1IIIB(H9 cells) was found to be 6.08; with HIV-1IIIB (C8166 cells), 4.81. For “5-(dimethylamino)-N-(2-methoxyphenyl)-2-((4-nitrophenyl)thio)benzamide [compound 28]”, in that order: 0.78 and 1.11. For `COc1ccccc1NC(=O)c1c(NCCBr)cccc1Sc1ccc([N+](=O)[O-])cc1` [compound 64, 2-((2-bromoethyl)amino)-N-(2-methoxyp-henyl)-6-((4-nitrophenyl)thio)benzamide], in that order: 0.85 and 3.28.

`CS(=O)(=O)Oc1ccccc1NC(=O)c1c(N)cccc1Sc1ccc([N+](=O)[O-])cc1` [compound 73, 2-(2-amino-6-((4-nitrophenyl)thio)benzamildo)phenyl methanesulfonate] registered a TI in the series on HIV-1IIIB (C8166 cells) of 5.28.

`Nc1cccc(NC(=O)c2c(N)cccc2Sc2ccc([N+](=O)[O-])cc2)c1` [compound 49, 2-amino-N-(3-aminophenyl)-6-(4-nitroph-enylthio)benzamide] came in with a TI in the series with HIV-1IIIB(H9 cells) of 4.82. Consider `COc1ccccc1NC(=O)c1c(N)cccc1Sc1ccc([N+](=O)[O-])cc1` [compound 25, 2-amino-N-(2-methoxyphenyl)-6-(4-nitrophenylthi-o)benzamide], for which the TI in the series on HIV-1IIIB(H9 cells) came out at 206.68; with HIV-1IIIB (C8166 cells) it was 310.02. Compound `COc1ccccc1NC(=O)c1c(N)cccc1Oc1ccc([N+](=O)[O-])cc1` [compound 48, 2-amino-N-(2-methoxyphenyl)-6-(4-nitrop-henoxy)benzamide] gave a TI in the series on HIV-1IIIB(H9 cells) of 2.14. For `COc1ccccc1NC(=O)c1c(Sc2ccc([N+](=O)[O-])cc2)cccc1N1CCOCC1` [compound 63, N-(2-methoxyphenyl)-2-morpholino-6-((4-nitrophenyl)thio) benzamide], the TI in the series on HIV-1IIIB (C8166 cells) is given as over 3.75. Consider `COc1ccccc1NC(=O)c1c(NS(=O)(=O)c2ccccc2)cccc1Sc1ccc([N+](=O)[O-])cc1` [compound 56, N-(2-methoxyphenyl)-2-(4-nitrophenylthio)-6-(phenylsulfonamido) benzamide], for which the TI in the series on HIV-1IIIB(H9 cells) is listed as over 1.46; with HIV-1IIIB (C8166 cells), over 8.17. For the compound `COc1ccccc1NC(=O)c1cc(NC(C)=O)ccc1Sc1ccc([N+](=O)[O-])cc1` [compound 29, 5-acetamido-N-(2-methoxyphenyl)-2-((4-nitrophenyl)thio) benzamide], the TI is given as under 0.37 in the series with HIV-1IIIB(H9 cells) and 1.49 with HIV-1IIIB (C8166 cells). For `COc1ccccc1NC(=O)c1c(NCCN)cccc1S(=O)(=O)c1ccc([N+](=O)[O-])cc1` [compound 79, 2-((2-aminoethyl)amino)-N-(2-methoxyphenyl)-6-((4-nitrophenyl)sulfonyl) benzamide], in that order: 0.99 and 0.97. Take `COc1ccc(NC(=O)c2c(N)cccc2Sc2ccc([N+](=O)[O-])cc2)c(OC)c1` [compound 51, 2-amino-N-(2,4-dimethoxyphenyl)-6-(4-nitrophenylthio) benzamide]: the TI with HIV-1IIIB(H9 cells) is 0.96. As for `COc1ccccc1NC(=O)c1c(NC(=O)CN)cccc1Sc1ccc([N+](=O)[O-])cc1.Cl` [compound 66, 2-(2-aminoacetamido)-N-(2-methoxyphenyl)-6-(4-nitrophenylthio) benzamide hydrochloride], the TI with HIV-1IIIB(H9 cells) is listed as 451.69; with HIV-1IIIB (C8166 cells) it was 97.01. In the case of `COc1ccccc1NC(=O)c1c(Sc2ccc([N+](=O)[O-])cc2)cccc1N1CCNCC1` [compound 62, N-(2-methoxyphenyl)-2-((4-nitrophenyl)thio)-6-(piperazinyl) benzamide], the TI in the series with HIV-1IIIB(H9 cells) amounted to 3.71; in the series on HIV-1IIIB (C8166 cells), 2.99.

`COc1ccccc1NC(=O)c1c(NS(=O)(=O)c2ccc(C)cc2)cccc1S(=O)(=O)c1ccc([N+](=O)[O-])cc1` [compound 60, N-(2-methoxyphenyl)-2-(4-methylphenyls-ulfonamido)-6-((4-nitrophenyl)sulfonyl)benzamide] had a TI in the series on HIV-1IIIB (C8166 cells) of over 2.19. `COc1ccccc1NC(=O)c1c(NS(=O)(=O)c2ccc(C)cc2)cccc1Sc1ccc([N+](=O)[O-])cc1` [compound 57, N-(2-methoxyphenyl)-2-(4-methylphenylsulfonamido)-6-((4-nitrophenyl)thio) benzamide]: the TI with HIV-1IIIB(H9 cells) is given as over 11.90; in the series on HIV-1IIIB (C8166 cells) it was 2.65. Consider `COc1ccccc1NC(=O)c1c(NCCO)cccc1S(=O)(=O)c1ccc([N+](=O)[O-])cc1` [compound 81, 2-((2-hydroxyethyl)amino)-N-(2-methoxyphenyl)-6-((4-nitrophenyl)sulfonyl) benzamide], for which the TI with HIV-1IIIB(H9 cells) was found to be 0.71; with HIV-1IIIB (C8166 cells), 1.15. For `COc1cc(N)ccc1NC(=O)c1c(N)cccc1Sc1ccc([N+](=O)[O-])cc1` [compound 50, 2-amino-N-(4-amino-2-methoxyphenyl)-6-(4-nitrophenylthio) benzamide], the TI with HIV-1IIIB(H9 cells) stood at 2.87. For `COc1ccccc1NC(=O)c1c(N)cccc1Sc1cc(C)cc(C)c1` [compound 74, 2-amino-6-((3,5-dimethylphenyl)thio)-N-(2-methoxyphenyl) benzamide], in the series with HIV-1IIIB (C8166 cells), the TI came to 9.45.
